The target of the experiment is hNav1.1 (human), P35498. Briefly: cell-based or functional assay.

The values below come from patent US20190359662A1.

The molecule DCRYMFGDCEKDEDCCKHLGCKRKMKYCAWDFTFT (modifications not checked) [Pnc1a-CONH2] gave a Selectivity for Nav1.7, membrane potential assay of 18 fold.

Molecule DCRYMFGDCEKDEDCCKHLGCKRKMKYCAWDFTFT (modifications not checked) [Ac-Pnc1a] returned a Selectivity for Nav1.7, membrane potential assay of 41 fold.
